Anti-infective test results gathered from many reports (values: NIAID ChemDB through PubChem).

Common to all: tests on isolated targets; agent: HIV-1; protein: Reverse transcriptase; endpoint: IC50

ICn: concentration for n% inhibition.

| smiles | strain or isolate | mutations | read by | value |
|---|---|---|---|---|
| Cc1cc(-c2ccccc2)nc(N2C(=O)CSC2c2c(F)cccc2Cl)n1 | - | - | absorbance | 10–100 µg/mL |
| CC(C)Nc1cccnc1NCCNC(=O)c1cc2ccccc2[nH]1 | - | - | nucleotide incorporation | >100 µM |
| O=C(CSc1nnnn1-c1ccccc1C(F)F)Nc1ccccc1[N+](=O)[O-] | - | - | fluorescence | 0.05–0.1 µM |
| COc1c(-c2cc(C)on2)c(O)c(S(=O)(=O)Oc2ccc([N+](=O)[O-])cc2)c2occc12 | - | - | RT activity / radiometric | 0.0000059 µM |
| CC(C)Nc1cccnc1N(C)CCCN(C)C(=O)c1cc2ccccc2[nH]1 | - | - | nucleotide incorporation | <100 µM |
| CC(C)Nc1ccc(F)cc1N1CCN(C(=O)c2cc3ccccc3[nH]2)CC1 | - | - | nucleotide incorporation | <100 µM |
| CCOCn1c(Sc2ccccc2)c(CC)c(=O)[nH]c1=O | - | RT-Y181C | nucleotide incorporation | 3 µM |
| CCC(C)Nc1cccnc1N1CCN(C(=O)c2cc3ccccc3[nH]2)CC1 | - | - | nucleotide incorporation | <100 µM |
| Cc1cn([C@H]2CC[C@@H](COP(=O)(O)OP(=O)(O)OP(=O)(O)O)O2)c(=O)[nH]c1=O | - | RT-K65R | nucleotide incorporation | >50 µM |
| COc1c(C(=O)/C=C(/C)Nc2ccc(Cl)cc2)c(O)c(S(=O)(=O)OC2CCCC2)c2occc12 | - | - | RT activity / radiometric | 0.0000078 µM |
| FC(F)c1nnc2c3ccccc3c(N3CCc4ccccc4C3)nn12 | KER2008 | - | RT activity / fluorescence | 0.29 µM |
| CS(=O)(=O)c1ccccc1NC(=O)CSc1nnnn1-c1cccc2ccccc12 | - | - | fluorescence | ≥0.1 µM |
| CCN1c2ncc(CCOc3ccc(/C=C(\C)C(=O)O)c4ccccc34)cc2C(=O)N(C)c2ccc(F)nc21 | - | RT-Y188L | nucleotide incorporation / radiometric | >1 µM |
| COc1ccc2cc(C(=O)N3CCN(c4ncccc4NC(C)C)CC3)[nH]c2c1 | - | - | nucleotide incorporation | <100 µM |
| Nc1ccc2c(c1)CN(c1nn3c(-c4cccs4)nnc3c3ccccc13)CC2 | 98US_MSC5016 | - | RT activity / fluorescence | 4.29 µM |
| CCNc1cccnc1N1CCN(C(=O)c2cc3cc(CC)ccc3[nH]2)CC1 | - | - | nucleotide incorporation | <100 µM |
| CC(C)=CCOc1cc(NC(=S)c2ccsc2C)ccc1Cl | - | RT-L74V | - | 0.2 µM |
| Nc1cc2c(cc1F)CN(c1nn3c(C4CC4)nnc3c3ccccc13)CC2 | IIIB | - | RT activity / fluorescence | 0.28 µM |
| CC(C)Nc1cccnc1N1CCN(C(=O)c2cc3cc(Br)ccc3[nH]2)CC1 | - | - | nucleotide incorporation | <100 µM |
| CCN1c2ncc(CCOc3ccc(CCC(=O)O)c4c3CCCC4)cc2C(=O)N(C)c2ccc(Cl)nc21 | - | RT-V106A | nucleotide incorporation / radiometric | >1 µM |
| O=C(NCc1cccnc1)c1[nH]c2ccc(Cl)cc2c1S(=O)(=O)c1ccccc1 | - | - | nucleotide incorporation | 0.003–0.035 µM |
| CC(C)=CCOc1cc(NC(=S)c2ccoc2C)ccc1Cl | - | RT-V106A | - | 3.2 µM |
| COc1c(-c2cc(C)n(C)n2)c(O)c(S(=O)(=O)OC2CCCCC2)c2occc12 | - | - | RT activity / radiometric | 0.0000049 µM |
| CCN(CC)c1cccnc1N1CCN(C(=O)c2cc3ccccc3[nH]2)CC1 | - | - | nucleotide incorporation | <100 µM |
| Nc1nc2c(ncn2[C@H]2CC[C@@H](COP(=O)(O)OP(=O)(O)OP(=O)(O)O)O2)c(=O)[nH]1 | - | - | nucleotide incorporation | 0.08 µM |
| O=C(Nc1cccnc1)c1[nH]c2ccc(Cl)cc2c1Sc1ccccc1 | - | - | nucleotide incorporation | 0.003–0.035 µM |
| Cc1nc(N2C(=O)CSC2c2c(F)cccc2F)nc(C)c1C | - | - | absorbance | <10 µg/mL |
| Cc1ccnc(NC(=O)NCCc2ccccc2)n1 | - | - | nucleotide incorporation | >10 µg/mL |
| Cc1cc(C)cc(S(=O)(=O)c2c(C(N)=O)[nH]c3ccc(Cl)cc23)c1 | - | RT-Y181I | nucleotide incorporation / radiometric | 0.14 µM |
| CC(C)Nc1cccnc1N(C)C1CCC(N(C)C(=O)c2cc3ccccc3[nH]2)CC1 | - | - | nucleotide incorporation | >100 µM |
| CCN1c2ncc(CCOc3ccc(C(=O)O)c4c3CCN(S(C)(=O)=O)C4)cc2C(=O)N(C)c2cccnc21 | - | RT-Y188L | nucleotide incorporation / radiometric | 0.1–1 µM |
| O=C(NCCc1ccccc1)Nc1nc2ccccc2s1 | - | - | nucleotide incorporation | >10 µg/mL |
| Nc1cnc2c(c1)CN(c1nn3c(C4CC4)nnc3c3ccccc13)CC2 | KER2008 | - | RT activity / fluorescence | 26.7 µM |
| CCN1c2ncc(CCOc3ccc(CC(=O)NN)c4ccccc34)cc2C(=O)N(C)c2ccc(Cl)nc21 | - | RT-Y188L | nucleotide incorporation / radiometric | 0.1–1 µM |
| Cc1cc(C)c(-n2nnnc2SCC(=O)c2cc3ccccc3o2)c(C)c1 | - | - | fluorescence | ≥0.1 µM |
| CC(C)Nc1cccnc1N(C)[C@H]1CCCC[C@@H]1N(C)C(=O)c1cc2ccccc2[nH]1 | - | - | nucleotide incorporation | >100 µM |
| COc1cc2[nH]c(C(=O)N3CCN(c4ncccc4NC(C)C)CC3)cc2cc1Br | - | - | nucleotide incorporation | <100 µM |
| O=C(CSc1nc(-c2cccs2)c2c(n1)-c1ccccc1CC2)NN1C(=O)c2ccccc2C1=O | - | - | nucleotide incorporation | 16.2 µM |
| COc1c(-c2cc(C)on2)c(O)c(S(=O)(=O)OC2CCCCC2)c2occc12 | - | - | RT activity / radiometric | 0.0000063 µM |
| C=[N+]([O-])c1ccccc1NC(=O)CNc1nnnn1-c1cccc2ccccc12 | - | - | fluorescence | ≥0.1 µM |
| CS(=O)(=O)Nc1ccc2c(c1)CN(c1nn3c(C4CC4)nnc3c3ccccc13)CC2 | IIIB | - | RT activity / fluorescence | 0.62 µM |
| O=C1CSC(c2c(F)cccc2Cl)N1c1nc(-c2ccccc2)cc(-c2ccccc2)n1 | - | - | absorbance | <10 µg/mL |
| F/C(=C/c1ccccc1Cl)CSc1nnnn1-c1cccc2ccccc12 | - | - | fluorescence | ≥0.1 µM |
| O=C1c2c(Cl)c(Cl)c(Cl)c(Cl)c2C(=O)N1c1nc(-c2cccs2)c2c(n1)-c1ccccc1CC2 | - | - | nucleotide incorporation | 2.11 µM |
| NC(=O)c1[nH]c2ccc(Cl)cc2c1S(=O)(=O)c1ccccc1 | - | RT-V106A | nucleotide incorporation / radiometric | 0.075 µM |
| S=c1nc2c(c(-c3cccs3)[nH]1)CCc1ccccc1-2 | - | - | nucleotide incorporation | 8.1 µM |
| O=C1CSC(c2c(F)cccc2F)N1c1nc(-c2ccccc2)cc(C(F)(F)F)n1 | - | - | absorbance | >100 µg/mL |
| CC(C)Nc1nccnc1N1CCN(C(=O)c2cc3cc(F)ccc3[nH]2)CC1 | - | - | nucleotide incorporation | <100 µM |
| c1ccc2c(c1)CN(c1nn3c(C4CC4)nnc3c3ccccc13)C2 | KER2008 | - | RT activity / fluorescence | >100 µM |
| COc1c(-c2cc(C)n(C)n2)c(O)c(S(=O)(=O)Oc2ccc([N+](=O)[O-])cc2)c2occc12 | - | - | RT activity / radiometric | 0.0000037 µM |
| O=C(CCl)SC1=NC(c2cccs2)C2=C(N1)c1ccccc1CC2 | - | - | nucleotide incorporation | 2.9 µM |
| CC(=O)Nc1ccc2[nH]c(C(=O)N3CCN(c4ncccc4NC(C)C)CC3)cc2c1 | - | - | nucleotide incorporation | <100 µM |
| COc1ccc2cc(C(=O)N3CCN(c4ncccc4NC(C)C)CC3)[nH]c2c1 | - | - | nucleotide incorporation | <100 µM |
| Cc1nnc(NC(=O)NCCc2ccccc2)s1 | - | - | nucleotide incorporation | >10 µg/mL |
| CCNc1cccnc1N1CCN(C(=O)c2cc3cc(C(=O)OCc4ccccc4)ccc3[nH]2)CC1 | - | - | nucleotide incorporation | <100 µM |
| COc1c(C(=O)/C=C(/C)Nc2ccccc2)c(O)c(S(=O)(=O)Oc2ccc([N+](=O)[O-])cc2)c2occc12 | - | - | RT activity / radiometric | 0.0000074 µM |
| Cc1cc(S(N)(=O)=O)ccc1NC(=O)COc1ccccc1C(=O)c1cc(Cl)cc(C#N)c1 | NNRTI-resistant | RT-Y188L | nucleotide incorporation / radiometric | 0.0679 µM |
| CC1C(Sc2nnnn2-c2cccc3ccccc23)C1c1ccccc1Cl | - | RT-K103N Y181C | fluorescence | ≥0.1 µM |
| NC(=O)c1[nH]c2ccc(Cl)cc2c1S(=O)(=O)c1ccccc1 | - | - | nucleotide incorporation | 0.003–0.035 µM |
| Nc1ncnc2c1ncn2[C@H]1CC[C@@H](COP(=O)(O)OP(=O)(O)OP(=O)(O)O)O1 | - | RT-F77L | nucleotide incorporation / radiometric | 4.5 µM |
| O=C(NCCc1ccccc1)Nc1ccccc1 | - | - | nucleotide incorporation | >10 µg/mL |
| O=C(CSc1nnnn1-c1cccc2ccccc12)Nc1cccc(Cl)c1Cl | - | - | fluorescence | 0.05–0.1 µM |
| COc1c2ccoc2c(S(=O)(=O)Oc2ccc([N+](=O)[O-])cc2)c2oc(C)cc(=O)c12 | - | - | RT activity / radiometric | 0.0000089 µM |
| O=C(O)/C=C/c1ccc(N=Nc2c(S(=O)(=O)O)cc3cc(NC(=O)Nc4ccc5c(O)c(N=Nc6ccc(/C=C/C(=O)O)cc6)c(S(=O)(=O)O)cc5c4)ccc3c2O)cc1 | - | - | nucleotide incorporation | 0.024 µM |
| COc1c(-c2cc(C)[nH]n2)c(O)c(S(=O)(=O)OC2CCCC2)c2occc12 | - | - | RT activity / radiometric | 0.000005 µM |
| CCOC(=O)CCSc1nc(-c2cccs2)c2c(n1)-c1ccccc1CC2 | - | - | nucleotide incorporation | 4.4 µM |
| CC(C)Nc1cccnc1N(C)CCOC(=O)c1cc2ccccc2[nH]1 | - | - | nucleotide incorporation | <100 µM |
| Cc1ccc(-c2ccccc2CCC(=O)Nc2cccs2)c(Cl)c1 | - | - | fluorescence | ≥0.1 µM |
| Nc1nc2c(ncn2[C@H]2CC[C@@H](COP(=O)(O)OP(=O)(O)OP(=O)(O)O)O2)c(=O)[nH]1 | IIIB | RT-1(IIIB) | nucleotide incorporation / radiometric | 0.033 µM |
| O=C(NCc1cccc(CO)c1)c1[nH]c2ccc(Cl)cc2c1Sc1ccccc1 | - | - | nucleotide incorporation | 0.003–0.035 µM |
| CC(C)Nc1cccnc1N1CCN(C(=O)c2cc3cc(O)ccc3[nH]2)CC1 | - | - | nucleotide incorporation | <100 µM |

Repeating the final 9 entries:

smiles,strain or isolate,mutations,read by,value
COc1c2ccoc2c(S(=O)(=O)Oc2ccc([N+](=O)[O-])cc2)c2oc(C)cc(=O)c12,-,-,RT activity / radiometric,0.0000089 µM
O=C(O)/C=C/c1ccc(N=Nc2c(S(=O)(=O)O)cc3cc(NC(=O)Nc4ccc5c(O)c(N=Nc6ccc(/C=C/C(=O)O)cc6)c(S(=O)(=O)O)cc5c4)ccc3c2O)cc1,-,-,nucleotide incorporation,0.024 µM
COc1c(-c2cc(C)[nH]n2)c(O)c(S(=O)(=O)OC2CCCC2)c2occc12,-,-,RT activity / radiometric,0.000005 µM
CCOC(=O)CCSc1nc(-c2cccs2)c2c(n1)-c1ccccc1CC2,-,-,nucleotide incorporation,4.4 µM
CC(C)Nc1cccnc1N(C)CCOC(=O)c1cc2ccccc2[nH]1,-,-,nucleotide incorporation,<100 µM
Cc1ccc(-c2ccccc2CCC(=O)Nc2cccs2)c(Cl)c1,-,-,fluorescence,≥0.1 µM
Nc1nc2c(ncn2[C@H]2CC[C@@H](COP(=O)(O)OP(=O)(O)OP(=O)(O)O)O2)c(=O)[nH]1,IIIB,RT-1(IIIB),nucleotide incorporation / radiometric,0.033 µM
O=C(NCc1cccc(CO)c1)c1[nH]c2ccc(Cl)cc2c1Sc1ccccc1,-,-,nucleotide incorporation,0.003–0.035 µM
CC(C)Nc1cccnc1N1CCN(C(=O)c2cc3cc(O)ccc3[nH]2)CC1,-,-,nucleotide incorporation,<100 µM

a–b is a range or a potency band. Conditions beyond the fields shown may differ between rows. An empty or dashed field is not shown.